Assay results from PubChem BioAssay AID1272365 (Small Molecule Screening Facility, UW Madison, 2020).
This is a selection; strong and weak results do not stand in their true shares. Calls of active or inactive are those of the source. Cut-off read from the data, not from the text of the source: active = inhibition mostly above about 37% (no sharp cut-off); inactive = mostly below about 20%.

The compounds below were run on PriA–SSB C-terminal tail interaction (Klebsiella pneumoniae) (assay: blocks PriA binding to SSB C-terminal tail, primary screen, biochemical, AlphaScreen (AID 1272365;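 note: plate controls were negative control peptide for no effect and reference peptide for full effect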)). Details: AlphaScreen SSBct-PriA binding, biotinylated peptide; at 33 µM; stronger effect = higher value.
With CCc1ccc(OP(C)(=O)Nc2cccnc2)cc1 (stereo unspecified) the inhibition was inactive: -1.13%.
CP(=O)(Oc1ccccc1)N1CCOC1=O (stereo unspecified) was tested, and the inhibition was inactive: -1.93%.
In the case of O=C(OCCCN1CCCC1)C(O)(c1ccccc1)C1CCCCC1 (stereo unspecified), the inhibition is reported as inactive: -10.6%.
COc1ccccc1OP(C)(=O)Nc1c(C)n(C)n(-c2ccccc2)c1=O (stereo unspecified) was tested, and the inhibition was inactive: -8.58%.
COc1ccc(OP(C)(=O)Nc2ccc(Br)cc2)cc1 (stereo unspecified) was tested, and the inhibition was inactive: -5.62%.
For CCN(CC)CC(O)COC(=O)C(O)(c1ccccc1)C1CCCCC1 (stereo unspecified), the inhibition was inactive: -16.7%.
In the case of CN(C)C(=O)c1c([N+](=O)[O-])cc([N+](=O)[O-])cc1[N+](=O)[O-], the inhibition is reported as inactive: 4.01%.
In the case of CP(=O)(Nc1ccc(Cl)cc1)Oc1ccc(F)cc1 (stereo unspecified), the inhibition is reported as inactive: -5.29%.
In the case of COc1ccccc1OP(C)(=O)Nc1ccccc1Br (stereo unspecified), the inhibition is reported as inactive: 6.24%.
CC(C)(C)c1ccc(OP(C)(=O)O)cc1 was tested, and the inhibition was inactive: 0.67%.
For CP(=O)(OC12CC3CC(CC(C3)C1)C2)OC12CC3CC(CC(C3)C1)C2, the inhibition was inactive: 1.69%.
In the case of CCOC(=O)c1ccc(NP(C)(=O)Oc2ccc(Cl)cc2)cc1 (stereo unspecified), the inhibition is reported as inactive: -15.2%.
With COc1ccc(OP(C)(=O)Nc2ccccc2Br)cc1 (stereo unspecified) the inhibition was inactive: -2.64%.
For COc1ccccc1OP(C)(=O)Nc1ccc(C)c(C)c1 (stereo unspecified), the inhibition was inactive: -5.08%.
With Cc1cc(C)cc(OP(C)(=O)Nc2cccc(C(F)(F)F)c2)c1 (stereo unspecified) the inhibition was inactive: -10.7%.
For O=C1C(O)=C([N+](=O)[O-])C(=O)C(O)=C1[N+](=O)[O-], the inhibition was inactive: 2.64%.
CCCCCCCCCCCCCCCC1C[N+](C)(C)CCOP(C)(=O)O1 (stereo unspecified) was tested, and the inhibition was inactive: -16.5%.
For CP(=O)(Nc1ccc(Cl)cc1Cl)Oc1ccccc1 (stereo unspecified), the inhibition was inactive: -13.5%.
With CP(=O)(OCCOc1ccccc1)OCCOc1ccccc1 the inhibition was inactive: -8.87%.
With CC(C)N1C(=O)CC2(CCN(CCOC(=O)C(O)(c3ccccc3)c3ccccc3)CC2)C1=O the inhibition was inactive: -13.1%.
With CN(C)CCOC(=O)C(O)(c1ccccc1)C1CCCC1 (stereo unspecified) the inhibition was inactive: -13.1%.
With COc1ccc(OP(C)(=O)Nc2ccccn2)cc1 (stereo unspecified) the inhibition was inactive: -1.21%.
In the case of COc1ccccc1OP(C)(=O)Nc1ccc(Br)cc1 (stereo unspecified), the inhibition is reported as inactive: -0.84%.
For CCc1ccc(OP(C)(=O)O)cc1, the inhibition was inactive: -17.5%.
COc1ccccc1OP(C)(=O)Nc1ccc(C)cc1C (stereo unspecified) was tested, and the inhibition was inactive: -8.71%.
CP(=O)(Nc1ccccn1)Oc1ccccc1 (stereo unspecified) was tested, and the inhibition was inactive: -4.58%.
Cc1c(NP(C)(=O)Oc2ccc(C(C)C)cc2)c(=O)n(-c2ccccc2)n1C (stereo unspecified) was tested, and the inhibition was inactive: -5.98%.
With O=[N+]([O-])c1cc([N+](=O)[O-])c(Nc2ccccn2)c([N+](=O)[O-])c1 the inhibition was inactive: 20.8%.
CC(C)c1ccc(OP(C)(=O)Nc2ccc(SC(F)(F)F)cc2)cc1 (stereo unspecified) was tested, and the inhibition was inactive: -12.3%.
With CP(=O)(Nc1ccccc1F)Oc1ccccc1 (stereo unspecified) the inhibition was inactive: -15%.
For O=C(OCCN1CCN(CCOCc2ccccc2)CC1)C(O)(c1ccccc1)c1ccccc1, the inhibition was inactive: -0.26%.
In the case of O=C(OC1CN2CCC1CC2)c1ccc([N+](=O)[O-])cc1 (stereo unspecified), the inhibition is reported as inactive: -5.28%.
For COc1ccc(OP(C)(=O)Nc2ccc(SC(F)(F)F)cc2)cc1 (stereo unspecified), the inhibition was inactive: -4.92%.
CCOC(=O)c1ccc(NP(C)(=O)Oc2ccc(F)cc2)cc1 (stereo unspecified) was tested, and the inhibition was inactive: 1.16%.
With CCCCCOc1ccc(NP(C)(=O)Oc2ccc(Cl)cc2Cl)cc1 (stereo unspecified) the inhibition was inactive: -16.7%.
For O=[N+]([O-])c1cc([N+](=O)[O-])c(OC2CCCCC2O)c([N+](=O)[O-])c1 (stereo unspecified), the inhibition was inactive: -12.4%.
For CP(=O)(Nc1ccccc1)Oc1ccc(F)cc1 (stereo unspecified), the inhibition was inactive: 0.95%.
In the case of CCN(CC)CCCOC(=O)C(O)(c1ccccc1)C1CCCCC1 (stereo unspecified), the inhibition is reported as inactive: 1.06%.
For Cc1c([N+](=O)[O-])cc([N+](=O)[O-])c(Br)c1[N+](=O)[O-], the inhibition was inactive: -6.78%.
COc1ccc(NP(C)(=O)Oc2ccccc2OC)cc1 (stereo unspecified) was tested, and the inhibition was inactive: 1.2%.
In the case of C=CCN1CCN(CCOC(=O)C(O)(c2ccccc2)c2ccccc2)CC1, the inhibition is reported as inactive: -11%.
With COc1ccc(OP(C)(=O)Nc2cccc(Br)c2)cc1 (stereo unspecified) the inhibition was inactive: -9.39%.
With O=[N+]([O-])c1cc([N+](=O)[O-])c(NCC2CCS(=O)(=O)C2)c([N+](=O)[O-])c1 (stereo unspecified) the inhibition was inactive: -11.9%.
With O=[N+]([O-])c1ccc(OP2(=O)COCCO2)cc1 (stereo unspecified) the inhibition was inactive: -12.1%.
In the case of CCOP(C)(=S)SCC(=O)NC(C)(CC)C(=O)O (stereo unspecified), the inhibition is reported as inactive: -4.01%.
C/C1=C2N=C(/C=C3N=C(/C(C)=C4\[N-][C@@](C)([C@@H]5N=C1[C@](C)(CCC(=O)NC[C@@H](C)OP(=O)([O-])O[C@H]1[C@@H](O)[C@@H](n6cnc7cc(C)c(C)cc76)O[C@@H]1CO)[C@H]5CC(N)=O)[C@@](C)(CC(N)=O)[C@@H]4CCC(N)=O)[C@@](C)(CC(N)=O)[C@@H]\3CCC(N)=O)C(C)(C)[C@@H]/2CCC(N)=O.[C-]#N.[Co+3] was tested, and the inhibition was inactive: 82%.
With CP(=O)(Nc1ccc(SC(F)(F)F)cc1)Oc1ccc(F)cc1 (stereo unspecified) the inhibition was inactive: 5.06%.
For Cc1ccccc1NP(C)(=O)Nc1ccccc1C, the inhibition was inactive: -15%.
In the case of CP(=O)(Nc1ccc2c(c1)OCCO2)Oc1ccccc1 (stereo unspecified), the inhibition is reported as inactive: -2.47%.
O=[N+]([O-])c1cc([N+](=O)[O-])c(-n2nnc3ccccc32)c([N+](=O)[O-])c1 was tested, and the inhibition was inactive: -2%.
In the case of O=[N+]([O-])c1cc([N+](=O)[O-])c(-c2cnn(-c3ccccc3)c2)c([N+](=O)[O-])c1, the inhibition is reported as active: 38.5%.
O=[N+]([O-])c1cc([N+](=O)[O-])c(Nc2nnnn2CCO)c([N+](=O)[O-])c1 was tested, and the inhibition was inactive: -3.35%.
In the case of CCCOc1ccc(NP(C)(=O)Oc2ccc(Cl)cc2)cc1 (stereo unspecified), the inhibition is reported as inactive: -13%.
In the case of CP(=O)(Nc1ccc(SC(F)(F)F)cc1)Oc1ccccc1 (stereo unspecified), the inhibition is reported as inactive: -4.61%.
With COc1ccccc1OP(C)(=O)Nc1c(C)cccc1C (stereo unspecified) the inhibition was inactive: -6.69%.
With CN1CCCCC1COC(=O)C1(O)c2ccccc2CCc2ccccc21 (stereo unspecified) the inhibition was inactive: -1.05%.
In the case of O=C(O)c1cccc(Nc2c([N+](=O)[O-])cc([N+](=O)[O-])cc2[N+](=O)[O-])c1, the inhibition is reported as inactive: 8.55%.
Cc1cc(C)cc(OP(C)(=O)Nc2ccc(C)cc2C)c1 (stereo unspecified) was tested, and the inhibition was inactive: 2.57%.
In the case of CCOC(=O)c1ccc(NP(C)(=O)Oc2cc(C)cc(C)c2)cc1 (stereo unspecified), the inhibition is reported as inactive: -21.8%.
In the case of COc1ccccc1OP(C)(=O)Nc1cccc(Br)c1 (stereo unspecified), the inhibition is reported as inactive: -7.25%.
In the case of Cc1cc(C)cc(OP(C)(=O)Nc2ccccn2)c1 (stereo unspecified), the inhibition is reported as inactive: -12.2%.
In the case of CP(=O)(Nc1cccc(Br)c1)Oc1ccccc1 (stereo unspecified), the inhibition is reported as inactive: -11.5%.
In the case of Cc1ccc(C)c(NP(C)(=O)Oc2ccccc2)c1 (stereo unspecified), the inhibition is reported as inactive: -11.2%.
In the case of CCC(CO)(C(=O)OC1CN2CCC1CC2)c1ccccc1 (stereo unspecified), the inhibition is reported as inactive: 10.4%.
In the case of Cc1cccc(C)c1OP(C)(N)=O (stereo unspecified), the inhibition is reported as inactive: -9.44%.
CC(C)(C)c1ccc(OP(C)(=O)Nc2ccc(SC(F)(F)F)cc2)cc1 (stereo unspecified) was tested, and the inhibition was inactive: 5.96%.
For O=[N+]([O-])c1ccc2c(c1)C=Nc1ccccc1O2, the inhibition was inactive: 24%.
With O=[N+]([O-])c1cc([N+](=O)[O-])c(Nc2cccnc2)c([N+](=O)[O-])c1 the inhibition was inactive: 3.32%.
With COc1ccc(OP(C)(=O)Nc2cccc(F)c2)cc1 (stereo unspecified) the inhibition was inactive: -0.47%.
COc1ccccc1OP(C)(=O)Nc1cc(Cl)ccc1C (stereo unspecified) was tested, and the inhibition was inactive: -1.4%.
Cc1cc(C)cc(OP(C)(N)=O)c1 (stereo unspecified) was tested, and the inhibition was inactive: 11%.
CCOC(=O)c1ccc(NP(C)(=O)Oc2ccccc2)cc1 (stereo unspecified) was tested, and the inhibition was inactive: -0.47%.
Cc1ccc(NP(C)(=O)Oc2ccccc2)c(C)c1 (stereo unspecified) was tested, and the inhibition was inactive: -12.8%.
For COc1ccccc1OP(C)(=O)Nc1ccc(C)cc1 (stereo unspecified), the inhibition was inactive: -8.83%.
With COc1ccccc1OP(C)(=O)Nc1ccccc1 (stereo unspecified) the inhibition was inactive: 5.09%.
For CP(=O)(Nc1ccccc1Br)Oc1ccccc1 (stereo unspecified), the inhibition was inactive: -8.73%.
For CP(=S)(Nn1cnnc1)Oc1ccccc1 (stereo unspecified), the inhibition was inactive: -16.5%.
With Cc1cc(C)cc(OP(C)(=O)Nc2ccc(SC(F)(F)F)cc2)c1 (stereo unspecified) the inhibition was inactive: 6.61%.
In the case of CP(=O)(NC(=O)Nc1ccccc1)Oc1ccccc1 (stereo unspecified), the inhibition is reported as inactive: -7.69%.
In the case of CCc1ccc(OP(C)(=O)N2CCN(c3ccc([N+](=O)[O-])cc3)CC2)cc1 (stereo unspecified), the inhibition is reported as inactive: 7.59%.
CP(=O)(Oc1ccccc1)OC(c1ccccc1)C(F)(F)F (stereo unspecified) was tested, and the inhibition was inactive: -8.01%.
For Cc1cccc(C)c1OP(C)(=O)Nc1ccc(SC(F)(F)F)cc1 (stereo unspecified), the inhibition was inactive: 0.23%.
In the case of CP(=O)(Nc1ccc(SC(F)(F)F)cc1)Oc1ccc(Cl)cc1 (stereo unspecified), the inhibition is reported as inactive: -18.4%.
CP(=O)(Nc1ccccn1)Oc1ccc(Cl)cc1 (stereo unspecified) was tested, and the inhibition was inactive: -10.7%.
For CCOP(C)(=S)SCC(=O)NC(C)C(=O)O (stereo unspecified), the inhibition was inactive: -6.61%.
With CCOC(=O)c1ccc(NP(C)(=O)Oc2ccc(OC)cc2)cc1 (stereo unspecified) the inhibition was inactive: 6.61%.
